PubChem BioAssay AID1224833 | University of Georgia, 2016

Purpose: 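Host factors restraining rotavirus as candidate antiviral genes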 (primary screen)
Cells: monkey MA104 kidney cells
Reagents: siRNA pool against human genes, 50 nM
Duration: 48 h knock-down before infection; read 24 h after infection
Conditions: infection with rotavirus strain RV3 two days after transfection; infectious dose for this stage not given
Measurement: 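z-score of rotavirus antigen signal per well, from a fluorescent immunoassay, relative to non-targeting control wells on the same plate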
Direction: z-score vs non-targeting control: higher = more rotavirus replication than with non-targeting control
Hit rule: In these data the active calls have z-score vs non-targeting control at about -1 or lower, or at about 1 or higher
Meaning of the calls: active = z-score beyond 1 either way; inactive = z-score within 1 of zero
Shown is a random part of about 12,000 deposited reagents. About 5,600 of all reagents (46%) were called active. 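Active calls cover z-scores past 1 in both directions, so they include lowered as well as raised rotavirus replication.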 Unmarked entries are inactive. Reagent sequences are not shown.

GAPDH | z-score vs non-targeting control: -2.43 (active)
FEZ1 | z-score vs non-targeting control: 0.218
CTDNEP1 | z-score vs non-targeting control: 0.474
C10orf95 | z-score vs non-targeting control: 1.44 (active)
PSG9 | z-score vs non-targeting control: -0.9
OR51B6 | z-score vs non-targeting control: -0.284
ALOXE3 | z-score vs non-targeting control: 0.618
SRRM2 | z-score vs non-targeting control: -1.67 (active)
FOXD4L4 | z-score vs non-targeting control: 0.551
ZNF398 | z-score vs non-targeting control: -3.26 (active)
CCDC91 | z-score vs non-targeting control: 1.4 (active)
CAPZB | z-score vs non-targeting control: -0.27
PHACTR4 | z-score vs non-targeting control: -0.562
MAL2 | z-score vs non-targeting control: -0.0601
TSHZ2 | z-score vs non-targeting control: -1.05 (active)
NEXN | z-score vs non-targeting control: 0.62
CCT6B | z-score vs non-targeting control: 1.7 (active)
FBL | z-score vs non-targeting control: -1.37 (active)
TIMM8A | z-score vs non-targeting control: -1.34 (active)

Part of the list above, reformatted:
target	z-score vs non-targeting control
PHACTR4	-0.562
MAL2	-0.0601
